Assay results from patent publication US20180155413A1 (AstraZeneca / MedImmune, published 2018).

B1: FBD94 IgG (antibody, V domains shown)
VH: EVQLVESGGGLVQPGRSLRLSCAVSGFIFEDYAINWVRQAPGKGLEWVSIISWDSGRIGYADSVRGRFTISRDNAKNSSFLQMNSLRPEDTAVYYCVKDMLAYYYDGSGIRYNLYGMDVWGQGTTVTVSS
VL: EIVLTQSPATLSLSPGERATLSCRASRSITTFLAWYQQKPGQAPRLLIYDASNRATGVPARFSGSGSGTDFTLTINSLEPDDFAIYYCQQRDHWPPIFGQGTRLEIK
B2: FBC39 IgG (antibody, V domains shown)
VH: EVQLVVSGGGLVKPGGSLRLSCAASGLSFLNAWMSWVRQAPGKGLEWVGRIKSNTDGGTTDYAAPVKGRFSISRDDSKNMLFLHMSSLRTEDTAVYYCATDGPYSDDFRSGYAARYRYFGMDVWGQGTTVTVSS
VL: DIQMTQSPSSVSASVGDRVTITCRASQDISTWLAWYQQKPGKAPKLLIYAASSLQSGVPSRFSGSGSGTDFTLTISSLQPEDFATYFCQQANSFPPTFGQGTKLEIK

What was measured:
[1] = biological target: T1, recombinant HA derived from B/Brisbane/60/2008 of the Victoria lineage (influenza B virus); assay: ELISA, rHA coated on plate
T1 construct: coated on ELISA plates

[2] = biological target: T2, recombinant HA derived from B/Florida/4/2006 of the Yamagata lineage (influenza B virus); assay: ELISA, rHA coated on plate
T2 construct: coated on ELISA plates

Binder	EC50 [1] [pM]	EC50 [2] [pM]
B1	90	100
B2	2070	290
